Read-outs that look alike come from different tables or passages of the source.

This is an account of results in US8198321B2, “Anti-microorganism terpenic composition” (priority 2006, dated 2012).

The conditions of the data set: rabbit.

As for “zinc ascorbo-camphorate [Third preparation]”, the “infiltration observed and vascular congestion (histopathology)” value is on record as ““minimal”” (2.1 μg/milliliter intravaginal daily for 10 days) and ““minimal”” (4200 μg/milliliter intravaginal daily for 10 days).
